In this data set the test system is T1, 12-mer FRLKGGAPIKGV with substitution A819N (P1′).
T1 sequence: FRLKGGAPIKGV

The substance “SARS-CoV papain-like protease 2 (SARS-CoV PLP2), residues 1414-1858 of pp1a, N-terminal 6xHis tag” displayed a Cleavage %, 2 h of 62.5% and a Cleavage %, 12 h of 100%.
